System: SK-MEL-1 human melanoma cells
Assay: SK-MEL-1 melanoma tumor volume in nude mice
Format: in vivo
Conditions: SK-MEL-1 tumor volume; PD325901 15 mg/kg QD 14 days, pegylated Interferon-beta-1a 10 μg QW 3 weeks
Procedure: Athymic nude mice were inoculated with 2×10^6 SK-MEL-1 human melanoma cells (1 injection per flank; 2 injections per mouse) and 100-200 cubic mm tumors were established. Mice (5 per group) were randomized and treated with 0, 1, 5, 10 and 20 mg/kg PD 325901 in PEG400 PO (orally) once per day (QD) for 14 days. Tumors were measured every 3 days using calipers and volume was calculated for a prolate spheroid, defined as: […]
where L equals the major diameter and W equals the minor diameter.
Athymic nude mice were inoculated with 2×10^6 SK-MEL-1 human melanoma cells (1 injection in flank; 1 injection per mouse) and 100-200 cubic mm tumors were established. pegylated IFN β-1a was provided in 20 mM acetic acid/sodium acetate at a pH of 4.8 and 150 mM arginine/HCl containing 15 mg/mL human serum albumin (HSA). HSA was used as a control and administered at a concentration of 15 mg/mL. Mice (10 per group) were randomized and treated with either:
i. PEG400 (once a day (QD) for 14 days) and pegylated Interferon-beta-1a (10 μg once a week (QW) for 3 weeks); ii. PD325901 (15 mg/kg once a day (QD) for 14 days) and pegylated Interferon-beta-1a (10 μg once a week (QW) for 3 weeks); iii. PEG400 (once a day (QD) for 14 days) and (HSA) (QW for 3 weeks); iv. […]
Tumors were measured every 3 days using calipers and volume was calculated for a prolate spheroid. […]

Question: With “pegylated IFN-beta-1a: Interferon beta-1a modified at the N-terminal α-amino group with a single, linear 20 kDa mPEG-O-2-methylpropionaldehyde group” as the substance, how does the “difference between estimates of least square means between treatment groups and vehicle control group” value read?
Answer: Its value is −4.77.
